Anti-infective test results gathered from many reports (values: NIAID ChemDB through PubChem).

All rows: toxicity to cultured cells; cells: MT-4; read-out: CC50

CCn is the concentration with n% toxicity to the cells. Lines come from different laboratories, so protocols vary. An empty or dashed field is not shown.

SMILES | read by | result
CC1=C[C@H](C)N2CN([C@@H]1C)n1cc(C(=O)NCc3ccc(F)cc3F)c(=O)c(O)c1C2=O | luminescence | 50 µM
O=C1NCc2c1ccnc2-c1cc(-c2cc(Cl)cc(OC(F)F)c2)n(-c2cccnc2)n1 | resazurin | >3.3 µM
Nc1nc2c(ncn2[C@@H]2C[C@@H](F)[C@H](CO)O2)c(=O)[nH]1 |  | >100 µM
O=C(NCc1ccc(F)cc1)c1nc2n(c(=O)c1O)CN1CCSC21 | microscopy | >1 µM
C=Cc1cc(N(C)C)nc(SC)n1 | MTT | 57 µM
Nc1nc(=O)n([C@@H]2CC[C@H](CO)O2)cc1F |  | 20 µM
COc1cc(Nc2nc3ccccc3n3cccc23)cc(OC)c1OC | MTT | >100 µM
C=Cc1cc(N(C)C)nc(S(C)(=O)=O)n1 | MTT | 110 µM
Cc1cn([C@H]2C=C[C@@H](CO)O2)c(=O)n(CCCCN2CCN(CCNC(=S)Nc3ccc(Br)cn3)CC2)c1=O | MTT | >100 µM
Cc1cn([C@H]2C[C@H](N=[N+]=[N-])[C@@H](COP(=O)(O)C(=O)NCCN)O2)c(=O)[nH]c1=O | MTT | >2400 µM
S=C(NCCN1CCNCC1)Nc1ccc(Br)cn1 | MTT | >100 µM
O=C1NCc2c1cccc2-c1cc(-c2cc(Cl)cc(OC(F)(F)F)c2)n(-c2cccnc2)n1 | resazurin | >3.3 µM
CCCc1nc2n(n1)C(c1ccc(OC)cc1)CC(=O)N2 | visual reading | >100 µg/mL
O=c1ccn([C@H]2C=C[C@@H](CO)O2)c(=O)n1CCCN1CCN(CCNC(=S)Nc2ccc(Br)cn2)CC1 | MTT | >100 µM
CCCCCCCCCCc1nccn(COCCO)c1=O | MTT | >100 µM
O=C1NCc2c1cccc2-c1cc(-c2cc(Br)cc(OC(F)F)c2)n(-c2cccnc2)n1 | resazurin | >3.3 µM
Cc1cn([C@H]2C[C@H](N=[N+]=[N-])[C@@H](CO)O2)c(=O)[nH]c1=O | WST | >4.482 µM
O=C1CC(c2ccc([N+](=O)[O-])cc2)n2nc(-c3ccc4ccccc4c3)nc2N1 | visual reading | >100 µg/mL
COc1ccc(OCc2nc3cc(C(F)(F)F)ccc3n3cccc23)cc1 | MTT | 52 µM
O=C1NCc2c1ccnc2-c1cc(-c2cc(Cl)cc(OC(F)(F)F)c2)n(-c2ccc(F)c(Cl)c2)n1 | resazurin | >3.3 µM
COc1ccc(Nc2nc3ccccc3n3cccc23)cc1OC | MTT | 31 µM
COc1ccc(/C=C/CSc2nc(Cc3c(Cl)cccc3Cl)c(C)c(=O)[nH]2)cc1 | MTT | 0.96 µM
CCCCCCCCCCCCCCCCOCC(COP(=O)(O)O)OCCCCCCCCCCCCCCCC | MTT | >5 µM
CCOC(=O)CCC(NC(=O)c1ccc(Nc2nc3cc(C(F)(F)F)ccc3n3cccc23)cc1)C(=O)OCC | MTT | 39 µM
Cc1cc(F)cc(-c2cc(-c3cccc4c3CNC4=O)nn2-c2ccc(F)c(Cl)c2)c1 | resazurin | >3.3 µM
CN(C)C(=O)C(=O)N(C)C1CN(CCc2ccccc2)CCn2c1nc(C(=O)NCc1ccc(F)cc1)c(O)c2=O | microscopy | >1 µM
Cc1cn([C@H]2C=C[C@@H](CO)O2)c(=O)n(CCOCCN2CCN(CCNC(=S)Nc3ccc(Br)cn3)CC2)c1=O | MTT | >100 µM
CCCc1nc2n(n1)C(c1ccccc1)CC(=O)N2 | visual reading | >100 µg/mL
O=C1NCc2c1ccnc2-c1cc(-c2cccc(Cl)c2)n(-c2cccc(C(F)(F)F)c2)n1 | resazurin | >3.3 µM
CCc1c(Cc2cc(C)cc(C)c2)nc(SC)[nH]c1=O | MTT | >100 µM
COc1ccc(C2CC(=O)Nc3nc(-c4cccnc4)nn32)cc1 | visual reading | >100 µg/mL
COc1ccc(/C=C/CSc2nc(Cc3c(F)cccc3F)c(C)c(=O)[nH]2)cc1 | MTT | 393 µM
ClCc1nc2ccccc2n2cccc12 | MTT | 6 µM
Cc1cn([C@H]2C[C@H](N=[N+]=[N-])[C@@H](COP(=O)(O)C(Cl)(Cl)Cl)O2)c(=O)[nH]c1=O | MTT | 1340 µM
Cc1c(C(C)c2c(F)cccc2F)nc(SC/C=C/c2ccc(C#N)cc2)[nH]c1=O | MTT | >59.1 µM
O=c1ccn([C@H]2C=C[C@@H](CO)O2)c(=O)n1CCCCCCN1CCN(CCNC(=S)Nc2ccc(Br)cn2)CC1 | MTT | >100 µM
COc1ccc(OC)c2c(NC(=S)N[C@H]3C[C@H](n4cc(C)c(=O)[nH]c4=O)O[C@@H]3CO)c3ccccc3c(C#N)c12 |  | 7.1 µg/mL
CN[C@@H]1[C@H](O[C@@H]2OC[C@@H](O)[C@H](O)[C@H]2O)[C@@H](O)[C@H](O[C@H]2c3cc(C)c(C(=O)N[C@@H](C)C(=O)O)c(O)c3-c3c(cc4c(c3O)C(=N)c3cc(OC)cc(O)c3C4=O)[C@H]2O)O[C@@H]1C |  | >30 µg/mL
Cc1cn([C@H]2C=C[C@@H](CO)O2)c(=O)n(CCCN2CCN(CCNC(=S)Nc3ccc(Br)cn3)CC2)c1=O | MTT | >100 µM
COc1cccc(-n2nc(-c3cccc4c3CNC4=O)cc2-c2ccnc(Cl)c2)c1 | resazurin | >3.3 µM
CCc1c(Cc2c(Cl)cccc2Cl)nc(SC/C=C/c2ccc(OC)cc2)[nH]c1=O | MTT | 0.19 µM
N#Cc1cc2[nH]c3ccccc3c2n(-c2ccc([N+](=O)[O-])cc2)c1=O | MTT | >32 µM
Cc1c(Cc2c(Cl)cccc2Cl)nc(SC/C=C/c2ccc([N+](=O)[O-])cc2)[nH]c1=O | MTT | >10.82 µM
CC1(C)c2nc(C(=O)NCc3ccc(F)cc3)c(O)c(=O)n2CCN1Cc1cn[nH]n1 | microscopy | >1 µM
Cc1cn([C@H]2C[C@H](N=[N+]=[N-])[C@@H](COP(=O)(O)CCl)O2)c(=O)[nH]c1=O | MTT | >2600 µM
Cc1cn([C@H]2C[C@H](N=[N+]=[N-])[C@@H](CO)O2)c(=O)[nH]c1=O | MTT | >1 µg/mL
O=C1NCc2c1ccnc2-c1cc(-c2ccc(F)c(OC(F)(F)F)c2)n(-c2cccc(Cl)c2)n1 | resazurin | >3.3 µM
CC1(C)c2nc(C(=O)NCc3ccc(F)cc3)c(O)c(=O)n2CCN1Cc1nn[nH]n1 | microscopy | >1 µM
COc1ccc(Nc2nc3cc(C(F)(F)F)ccc3n3cccc23)cc1OC | MTT | 27 µM
COc1cc(O)c2c(c1)C(=O)c1c(cc3c(c1O)-c1c(cc(C)c(C(=O)N[C@H](C)C(=O)O)c1O)[C@H](O[C@@H]1O[C@H](C)[C@H](N)[C@H](O[C@@H]4OC[C@@H](O)[C@H](O)[C@@H]4O)[C@H]1O)[C@H]3O)C2=O |  | >100 µg/mL
CC1C2CC2C(C)N2CN1C(=O)c1c(O)c(=O)c(C(=O)NCc3c(F)cc(F)cc3F)cn12 | luminescence | 34.3 µM

The last 7 rows once more:

SMILES	read by	result
Cc1cn([C@H]2C[C@H](N=[N+]=[N-])[C@@H](COP(=O)(O)CCl)O2)c(=O)[nH]c1=O	MTT	>2600 µM
Cc1cn([C@H]2C[C@H](N=[N+]=[N-])[C@@H](CO)O2)c(=O)[nH]c1=O	MTT	>1 µg/mL
O=C1NCc2c1ccnc2-c1cc(-c2ccc(F)c(OC(F)(F)F)c2)n(-c2cccc(Cl)c2)n1	resazurin	>3.3 µM
CC1(C)c2nc(C(=O)NCc3ccc(F)cc3)c(O)c(=O)n2CCN1Cc1nn[nH]n1	microscopy	>1 µM
COc1ccc(Nc2nc3cc(C(F)(F)F)ccc3n3cccc23)cc1OC	MTT	27 µM
COc1cc(O)c2c(c1)C(=O)c1c(cc3c(c1O)-c1c(cc(C)c(C(=O)N[C@H](C)C(=O)O)c1O)[C@H](O[C@@H]1O[C@H](C)[C@H](N)[C@H](O[C@@H]4OC[C@@H](O)[C@H](O)[C@@H]4O)[C@H]1O)[C@H]3O)C2=O		>100 µg/mL
CC1C2CC2C(C)N2CN1C(=O)c1c(O)c(=O)c(C(=O)NCc3c(F)cc(F)cc3F)cn12	luminescence	34.3 µM